Test results from paper PMC4489319 (ACS Infectious Diseases, 2015).

Test system: C[C@H](CCC(=O)SCCNC(=O)CCNC(=O)[C@H](O)C(C)(C)COP(=O)(O)OP(=O)(O)OC[C@H]1O[C@@H](n2cnc3c(N)ncnc32)[C@H](O)[C@@H]1OP(=O)(O)O)[C@H]1CC[C@H]2[C@@H]3CCC4=CC(=O)CC[C@]4(C)[C@H]3CC[C@]12C
Experiment: purified protein
Conditions: pH 8.5; 25.0 °C

ChsE3 (Mycobacterium tuberculosis H37Rv)
Km: 28 ± 8 µM
kcat/Km: 180000 M⁻¹ s⁻¹
